Results deposited as PubChem BioAssay AID504761 (Drosophila RNAi Screening Center, 2011)
In all, the deposit lists about 22,000 reagents; this is an unselected part of those that have a named target and a result. Over the whole deposit, 116 (0.52%) got an active call. 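Calls depend on retest data that are not deposited; infection was ranked per plate without normalising between plates; the unit of the infection score is not given.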 The raw values are shown without normalisation. Not given: the amount of reagent, the time to read-out.

Aim: 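Insect host genes that dengue virus relies on to spread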 (primary screen)
Cells: D.Mel-2 cells from Drosophila
Reagents: long dsRNA against Drosophila genes
Treatment: infection with dengue virus type 2; dose and infection time not stated
Measured: 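Per well on two replicate plates, imaging gave the percent of cells positive for viral envelope protein, ranked by infection, and a nuclear count of cells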
Scale: infection score: higher = more virus-infected cells; cell count: higher = more cells in the well
Call rule: 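Very low infection ranking in both replicate wells (chance probability at most 0.065), then a retest showing infection dropped 1.5-fold or more at p below 0.05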
Meaning of the calls: active = confirmed: knock-down lowers infection; inactive = not picked or not confirmed

Target gene	PubChem SID	infection score, replicate 1	infection score, replicate 2	cell count, replicate 1	cell count, replicate 2	Call
CG9951	SID104190897	2.77	9.07	6678	5677	inactive
AlaRS	SID104181643	2.59	5.08	6171	5712	inactive
CG11791	SID104194183	4.15	4.11	6240	6207	inactive
CG11791	SID104208043	8.2		1426	388	inactive
AGBE	SID104186653	10.8	1.56	6150	6105	inactive
AGBE	SID104206196	13.9	24.8	6507	5556	inactive
CG14237	SID104202596	3.14	4.45	7298	7120	inactive
CG33257	SID104189709	2.86	2	6018	6188	inactive
Nt5c	SID104186503	30.8	9.21	3990	6177	inactive
Nt5c	SID104205784	13.7	7.88	6560	6577	inactive
CG17145	SID104190039	4.77	3.78	6729	6566	inactive
Nsun5	SID104195627	8.25	1.98	6130	6481	inactive
CSN6	SID104196385			425	337	inactive
Lsd-2	SID104199935	10.2	1.94	6171	6684	inactive
Lsd-2	SID104207445	21.6	20.9	6170	5552	inactive
Tspo	SID104180325	2.39	1.39	6069	6705	inactive
Dip-B	SID104196258	5.56	13.6	5993	6687	inactive
Dip-B	SID104204519	2.07	1.07	6324	6832	inactive
CG15517	SID104194848	11	1.93	4863	6383	inactive
mRpS11	SID104195524	9.26	22.1	6727	6475	inactive
CG13667	SID104189820	6.21	6.11	6248	5978	inactive
Gr28b	SID104182083	2.89	4.47	6024	6312	inactive
Gr28b	SID104182084	5.08	6.93	5908	6323	inactive
Gr28b	SID104208003	22.3	1.95	5547	564	inactive
sktl	SID104184507	7.83	30.4	5928	5325	inactive
CG7987	SID104196149	3.87	5.76	6403	6700	inactive
CG7987	SID104208546	14.2	9.87	6145	5905	inactive
CR14117	SID104189913	0.67	0.52	6442	6320	inactive
CR14117	SID104204494	1.23	9.62	6676	5728	inactive
CG4744	SID104186679	18.4	24.4	5587	6128	inactive
CG4744	SID104207240	6.69	0.25	1286	395	inactive
vret	SID104195432	4.68	7.43	6514	7138	inactive
olf413	SID104191335	2.59	1.63	5713	6020	inactive
olf413	SID104191471	3.18	4.26	6486	6683	inactive
olf413	SID104191513	11.3	6.16	6539	6069	inactive
olf413	SID104191625	0.69	3.11	6381	6850	inactive
Gprk1	SID104200524		0.29	6306	6862	inactive
Gprk1	SID104200708	3.39	3.56	6836	6397	inactive
CG30184	SID104201797	1.84	11.2	5650	5479	inactive
CG30184	SID104208175	19.2	15.7	5660	4390	inactive
clt	SID104184413	5.81	11.4	6285	6326	inactive
CG8630	SID104196233	1.43	14.8	6862	2522	inactive
CG8630	SID104203023	7.86	4.69	6021	6203	inactive
Spn53F	SID104185814	10	10.5	4389	6821	inactive
ND-B17	SID104181773	10.7	0.58	4660	7078	inactive
CG5274	SID104191566	11.5	30.3	6167	5516	inactive
BI-1	SID104190574	2.2	2.1	6781	6417	inactive
dunk	SID104214090	0.55	15.3	5772	4974	inactive
dunk	SID104214091	2.43	5.73	5429	1030	inactive
Spn42Da	SID104184817	3.62		856	350	inactive
Axn	SID104193912	12.8	2.97	5479	5386	inactive
Axn	SID104207967	12.1		3841	379	inactive
Kr-h1	SID104180700	7.04	1.82	6437	6327	inactive
Kr-h1	SID104183147	11.2	0.86	5991	6594	inactive
Kr-h1	SID104202830	2.96	2.18	6075	5684	inactive
Obp58c	SID104183958	10.9	12.2	6467	6724	inactive
grau	SID104184483	15.1	17.7	6932	7199	inactive
grau	SID104205874	12.3	11.7	7060	5142	inactive
Tdc1	SID104184734	0.11	0.02	6519	6354	active
CG31463	SID104194138	9.77	9.28	6641	6798	inactive
CG31463	SID104205096	2.17	9.13	6302	4172	inactive
CG17032	SID104190033	1.09	1.98	6054	6458	inactive
CG2493	SID104182499	16.7	28.3	6703	6312	inactive
CHES-1-like	SID104198239	0.6	20.8	504	4842	inactive
TwdlF	SID104192017	10.3	20.1	4325	5540	inactive
TwdlF	SID104205802	8.16	10.1	6315	6339	inactive
Cap-H2	SID104194700	17.5	14.2	6557	6425	inactive
CG15822	SID104188274	4.89	2.31	6098	6574	inactive
CG15822	SID104188275	3.83	1.54	6351	6478	inactive
CG15435	SID104180242	2.8	4.28	6892	7153	inactive
CG15435	SID104206245	6.38	3.84	6381	6436	inactive
CG3156	SID104198295	7.31	33.7	6331	6923	inactive
CG3156	SID104206483	25.6	19.4	5771	2109	inactive
CG13814 (retired record)	SID104189861	4.83	5.86	6748	6417	inactive

Limited to “infection score, replicate 1”, for 5 of the entries above:
Tdc1 [SID104184734]	0.11
CG31463 [SID104194138]	9.77
CG31463 [SID104205096]	2.17
CG17032 [SID104190033]	1.09
CG2493 [SID104182499]	16.7
